{"source": "PubChem BioAssay AID504761 (Drosophila RNAi Screening Center, 2011)", "screen": "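Insect host genes that dengue virus relies on to spread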 (primary screen)", "cells": "D.Mel-2 cells from Drosophila", "knock-down reagent": "long dsRNA against Drosophila genes", "challenge": "infection with dengue virus type 2; dose and infection time not stated", "measured": "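Cells stained for dengue envelope protein and imaged; percent of infected cells per well on duplicate plates, ranked by infection, with stained nuclei counted for cell number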", "direction": "infection score: higher = more virus-infected cells; cell count: higher = more cells in the well", "call rule": "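Very low infection ranking in both replicate wells (chance probability at most 0.065), then a retest showing infection dropped 1.5-fold or more at p below 0.05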", "meaning of the calls": "active = confirmed: knock-down lowers infection; inactive = not picked or not confirmed", "note": "The deposit covers about 22,000 reagents; below is an unselected part of those with a known target gene and a result. Of all reagents, 116 (0.52%) got an active call. 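Calls depend on retest data that are not deposited; infection was ranked per plate without normalising between plates; the unit of the infection score is not given.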 Raw values are not corrected between plates. Entries without a mark were called inactive. Reagents against one gene are numbered here. Further read-outs or replicates are left out here. No sequences are given here. The record does not give: the amount of reagent, the time to read-out."}
{"predicted target": "CG5768", "reagent no.": 1, "infection score, replicate 1": 3.9, "cell count, replicate 1": 6437}
{"predicted target": "Eig71Ed", "reagent no.": 1, "infection score, replicate 1": 5.31, "cell count, replicate 1": 5819}
{"predicted target": "CG9498", "reagent no.": 1, "infection score, replicate 1": 6.11, "cell count, replicate 1": 5855}
{"predicted target": "CG16865", "reagent no.": 1, "infection score, replicate 1": 20.5, "cell count, replicate 1": 5921}
{"predicted target": "meru", "reagent no.": 1, "cell count, replicate 1": 1181}
{"predicted target": "meru", "reagent no.": 2, "infection score, replicate 1": 0.37, "cell count, replicate 1": 6166}
{"predicted target": "MYPT-75D", "reagent no.": 1, "infection score, replicate 1": 17.5, "cell count, replicate 1": 4338}
{"predicted target": "POSH", "reagent no.": 1, "infection score, replicate 1": 8.65, "cell count, replicate 1": 6025}
{"predicted target": "Su(z)12", "reagent no.": 1, "infection score, replicate 1": 1.7, "cell count, replicate 1": 6290}
{"predicted target": "Su(z)12", "reagent no.": 2, "infection score, replicate 1": 4.56, "cell count, replicate 1": 6562}
{"predicted target": "nerfin-2", "reagent no.": 1, "infection score, replicate 1": 3.18, "cell count, replicate 1": 6550}
{"predicted target": "nerfin-2", "reagent no.": 2, "infection score, replicate 1": 13.9, "cell count, replicate 1": 3927}
{"predicted target": "CG10822", "reagent no.": 1, "infection score, replicate 1": 3.96, "cell count, replicate 1": 6068}
{"predicted target": "lcs", "reagent no.": 1, "infection score, replicate 1": 2.1, "cell count, replicate 1": 5466}
{"predicted target": "lcs", "reagent no.": 2, "infection score, replicate 1": 11.9, "cell count, replicate 1": 6173}
{"predicted target": "Nubp1", "reagent no.": 1, "infection score, replicate 1": 4.92, "cell count, replicate 1": 6113}
{"predicted target": "zuc", "reagent no.": 1, "infection score, replicate 1": 16, "cell count, replicate 1": 6179}
{"predicted target": "CG5280", "reagent no.": 1, "infection score, replicate 1": 4.17, "cell count, replicate 1": 5466}
{"predicted target": "CG5280", "reagent no.": 2, "infection score, replicate 1": 1.2, "cell count, replicate 1": 6085}
{"predicted target": "Lcp2", "reagent no.": 1, "infection score, replicate 1": 6.62, "cell count, replicate 1": 6691}
{"predicted target": "CG2854", "reagent no.": 1, "infection score, replicate 1": 3.53, "cell count, replicate 1": 6031}
{"predicted target": "AcCoAS", "reagent no.": 1, "infection score, replicate 1": 1.9, "cell count, replicate 1": 6530}
{"predicted target": "AcCoAS", "reagent no.": 2, "infection score, replicate 1": 5.08, "cell count, replicate 1": 6279}
{"predicted target": "AcCoAS", "reagent no.": 3, "infection score, replicate 1": 4.32, "cell count, replicate 1": 5625}
{"predicted target": "AcCoAS", "reagent no.": 4, "infection score, replicate 1": 12.9, "cell count, replicate 1": 5676}
{"predicted target": "Cks85A", "reagent no.": 1, "infection score, replicate 1": 2.17, "cell count, replicate 1": 5763}
{"predicted target": "CG7214", "reagent no.": 1, "infection score, replicate 1": 1.3, "cell count, replicate 1": 1921}
{"predicted target": "CG7214", "reagent no.": 2, "infection score, replicate 1": 11.6, "cell count, replicate 1": 2445}
{"predicted target": "CG7214", "reagent no.": 3, "cell count, replicate 1": 229}

Not a retest: 2 of the entries above.
{"predicted target": "meru", "reagent no.": 2, "infection score, replicate 1": 0.37, "cell count, replicate 1": 6166}
{"predicted target": "MYPT-75D", "reagent no.": 1, "infection score, replicate 1": 17.5, "cell count, replicate 1": 4338}
